# HIV-1 5' UTR: effect of mutations on RNA dimer formation

Source: Ye et al. 2022 (doi:10.1038/s41594-022-00746-2), supplementary data.

The 5' region of HIV-1 NL4-3 RNA (positions 1-437):
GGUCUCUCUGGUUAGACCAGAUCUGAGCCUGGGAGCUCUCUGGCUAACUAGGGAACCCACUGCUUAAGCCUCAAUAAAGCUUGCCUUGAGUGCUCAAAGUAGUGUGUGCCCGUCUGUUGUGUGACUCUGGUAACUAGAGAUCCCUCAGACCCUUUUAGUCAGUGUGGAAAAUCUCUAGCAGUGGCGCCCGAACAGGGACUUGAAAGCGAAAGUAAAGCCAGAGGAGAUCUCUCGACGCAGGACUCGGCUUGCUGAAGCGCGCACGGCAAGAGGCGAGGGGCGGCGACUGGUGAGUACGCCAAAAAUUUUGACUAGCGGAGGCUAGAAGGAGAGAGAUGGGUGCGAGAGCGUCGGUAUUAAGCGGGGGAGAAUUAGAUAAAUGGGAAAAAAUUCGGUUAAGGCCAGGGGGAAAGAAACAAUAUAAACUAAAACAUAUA

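Randomly mutated transcripts starting with one, two or three G (1G, 2G, 3G), capped or uncapped, were folded for 30 min at 37 °C. High salt was 300 mM KCl and 5 mM MgCl2, low salt 40 mM KCl and 0.1 mM MgCl2; monomer and dimer were parted on a native gel. Mutation frequencies in the two bands give Kdimer.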

Values are log2 Kdimer, the median over the changes at each position: higher means that changes there hinder dimer formation, below 0 that they favour it. One numbering serves 1G, 2G and 3G. A position is written with its base.

position,domain,3G capped high-salt,3G capped low-salt,3G uncapped high-salt,3G uncapped low-salt
U392,none,0.06,0.20,0.04,0.01
C393,none,0.06,0.10,0.00,0.12
G394,none,0.07,0.14,0.08,0.13
G395,none,-0.03,-0.44,-0.01,-0.09
U396,none,-0.03,0.07,-0.07,0.01
U397,none,0.04,-0.02,-0.04,-0.06
A398,none,0.00,-0.06,0.06,0.00
A399,none,0.13,0.04,0.08,0.13
G400,none,-0.01,-0.08,0.05,-0.03
G401,none,-0.09,-0.06,0.01,0.10
C402,none,-0.11,-0.10,-0.04,0.02
C403,none,0.00,-0.32,-0.16,-0.03
A404,none,0.01,-0.09,0.06,0.06
G405,none,-0.05,-0.08,-0.15,0.01
G406,none,0.00,-0.03,-0.09,0.11
G407,none,0.03,0.04,0.03,0.06
G408,none,-0.02,-0.06,-0.01,0.02
G409,none,0.09,0.00,0.00,-0.02
A410,none,0.05,-0.02,0.04,0.00

The last 2 entries again:

position,domain,3G capped high-salt,3G capped low-salt,3G uncapped high-salt,3G uncapped low-salt
G409,none,0.09,0.00,0.00,-0.02
A410,none,0.05,-0.02,0.04,0.00